# ChEMBL document CHEMBL1671691 (Antimicrob Agents Chemother, 2010)
# Legend:
# Influenza A virus [1] = assay: Antiviral activity against adamantane-, oseltamivir-, zanamivir-susceptible Influenza A virus (A/Swine/Texas/14/2008 (H1N1)) harboring M2 V27T, V28D mutant infected in MDCK cells assessed as inhibition of viral replication after 3 days by microscopic analysis using crystal violet stain
# Influenza A virus [2] = assay: Antiviral activity against adamantane-, oseltamivir-, zanamivir-susceptible Influenza A virus (A/swine/Michigan/09/2007 (H1N2)) harboring M2 V27I, V28D mutant infected in MDCK cells assessed as inhibition of viral replication after 3 days by microscopic analysis using crystal violet stain
compound,measurement,setting,value
NC(=O)c1nc(F)cnc1O [FAVIPIRAVIR],EC50,Influenza A virus [1],4.52 µM
same,EC50,Influenza A virus [2],2.23 µM
